# According to PubChem BioAssay AID651724 (National Center for Advancing Translational Sciences (NCATS), 2012):
# This is a selection; strong and weak results do not stand in their true shares. Some salts and complexes are drawn in separate pieces, as the source files them; their charges need not balance. Activity calls are given as the source filed them. No stated cut-off is given here; in the data, active means activity change below about -65%; inconclusive means mostly about -30% to -63%; inactive means weaker than that.
# Test system: CtBP / adenovirus E1A interaction (AlphaScreen)
# Assay: qHTS Assay for Inhibitors of the CtBP/E1A Interaction
# Settings: AlphaScreen GST-E1A/His-CtBP binding, 1536-well; active compounds read low
# Text: Carboxyl-terminal binding protein (CtBP) is a co-repressor for many transcription factors. […] Our studies have shown that CtBP is overexpressed in multiple human cancers, including lung, breast, and head and neck cancers. In particular, it is over-expressed in 50% of primary lung cancer and 90% of metastatic lesions. CtBP suppresses epithelial-specific genes as well as genes critical for apoptosis, providing the underlying molecular mechanism for its role in tumorigenesis. […] Based on the above data, we hypothesize that 1) CtBP suppresses the pro-apoptotic and epithelial genes, therefore overexpressed CtBP in human cancer cells increases EMT and cancer survival; 2) decreasing CtBP's function represents a targeted therapy for lung cancer and potentially multiple cancer types. As a co-repressor, CtBP binds to E1A and other transcription factors through a conserved peptide motif to carry out its action. Inhibiting this interaction using small molecules can potentially serve as effective cancer therapeutics.
# To this end, we have developed a homogenous AlphaScreen assay targeting the CtBP/E1A interaction. We performed a large scale HTS of the Molecular Libraries Small Molecule Repository (MLSMR) to identify inhibitors of the CtBP/E1A interaction as potential anti-cancer therapeutics. Compounds identified can also be used as chemical probes to better understand the biological functions of CtBP.
# NIH Chemical Genomics Center [NCGC]
# NIH Molecular Libraries Probe Centers Network [MLPCN]
# Assay Submitter (PI): Rui Zhao, University of Colorado Denver
# The first step of the 5uL AlphaScreen assay is to dispense assay buffer (50 mM Tris, pH 8.0, 300 mM NaCl, 0.05% BSA, 0.02% Tween 20, 1 mM TCEP) into a Greiner 1536 white solid bottom microtiter plate (789175-F). Five microliters is added to Column 1, 4 uL is added to Column 2 and 3 uL is added to Columns 3 through 48. A 5X protein solution (125 nM GST-E1A protein + 125 nM His-tagged CtBP protein) is mixed and 1 uL is dispensed to Columns 3-48. Using a 1536 pintool, 23 nL of compound is transferred to the assay plate and the plate is incubated with a lid at 37 deg C in the dark for two hours. A solution of 5X AlphaScreen beads is mixed (50 ug/mL Glutathione linked donor beads + Nickel chelated acceptor beads) and 1 uL is dispensed to Columns 2-48. The assay plate is incubated for one hour, with a lid, at 37 deg C in the dark. The plate is read using a Perkin Elmer Envision using an AlphaScreen protocol.
# On the % scale 0 is the no-effect control and ±100 the full control effect.
row,SMILES,activity change
1,O=C(OC1CN2CCC1CC2)c1ccc([N+](=O)[O-])cc1 (stereo not given),inactive: 6.65%
2,CN1CCC(Nc2cccc(F)c2)CC1,inactive: -12.9%
3,O=C(NCC1(N2CCCCC2)CCCCC1)c1cncc(Br)c1,inactive: 3.83%
4,COc1ccc2c(c1O)-c1c(O)c(OC)cc3c1[C@H](C2)[N+](C)(C)CC3.O=[N+]([O-])c1cc([N+](=O)[O-])c([O-])c([N+](=O)[O-])c1[O-],inactive: 0.392%
5,COc1ccc(C(c2nnnn2C2CCCC2)N2CCC(n3c(=O)[nH]c4ccccc43)CC2)cc1 (stereo not given),inactive: -7.92%
6,O=[N+]([O-])c1cc([N+](=O)[O-])c(Nc2ccc(Cl)cc2)c([N+](=O)[O-])c1,inactive: -11.7%
7,CCCOc1ccc(C(=O)NCC2(N(C)C)CCCCC2)cc1OC,inactive: 0.954%
8,Cc1ccc(C(=O)NCC2(N(C)C)CCCCC2)o1,inactive: 7.98%
9,O=C(NCC1(N2CCCCC2)CCCCC1)c1ccc(OC(F)F)cc1,inactive: 5.74%
10,CC(C)(C)n1nnnc1C(c1ccccc1OC(F)(F)F)N1CCC(n2c(=O)[nH]c3ccccc32)CC1 (stereo not given),inactive: -4.63%
11,O=c1[nH]c2ccccc2n1C1CCN(C(c2ccccc2OC(F)(F)F)c2nnnn2C2CCCC2)CC1 (stereo not given),inactive: -1.52%
12,N#CC1(Nc2ccccc2)CCN(CCc2ccccc2)CC1,inactive: 0%
13,CCN1CCC(Nc2ccc(Cl)cc2)CC1,inactive: 1.52%
14,O=C(NCC1(N2CCCCC2)CCCCC1)c1cccc([N+](=O)[O-])c1,inactive: -13.5%
15,CSc1ccc(C(=O)NCC2(N3CCOCC3)CCCCC2)cc1,inactive: -7.2%
16,O=[N+]([O-])c1cc([N+](=O)[O-])c(NCC2CCS(=O)(=O)C2)c([N+](=O)[O-])c1 (stereo not given),inactive: -20.1%
17,O=C(NCC1(N2CCCCC2)CCCCC1)c1cccc(C(F)(F)F)c1,inactive: 3.39%
18,O=C(NCC1(N2CCOCC2)CCCCC1)c1cc(=O)[nH]c2ccccc12,inactive: 0.996%
19,COc1cc(C(=O)NCC2(N3CCCCC3)CCCCC2)ccc1OC(F)F,inactive: 3.57%
20,COc1ccc(NC2CCN(C(=O)OC(C)(C)C)CC2)cc1,inactive: -9.99%
21,CC(C)c1ccc(C(=O)NCC2(N3CCOCC3)CCCCC2)cc1,inactive: 3.49%
22,CN1CCN(CCOC(=O)C(O)(c2ccccc2)c2ccccc2)CC1,inactive: -1.04%
23,CCCCn1nnnc1C(c1cccc2ccccc12)N1CCC(n2c(=O)[nH]c3ccccc32)CC1 (stereo not given),inactive: -12.2%
24,O=C1CCN(Cc2ccccc2)CC1,inactive: 1.4%
25,CC(C)(C)n1nnnc1C(c1ccccc1)N1CCC(n2c(=O)[nH]c3ccccc32)CC1 (stereo not given),inactive: -3.15%
26,CCOc1ccc(C)cc1CN(CCCl)CCCl,inactive: 4.93%
27,CCOC(=O)N1CCC(Nc2ccc(F)cc2)CC1,inactive: -5.37%
28,COc1ccc(NC2CCN(CCc3ccccc3)CC2)c(OC)c1,inactive: -17.9%

row,SMILES,activity change
1,CCCCOc1ccc(C(=O)NCC2(N3CCOCC3)CCCCC2)cc1,inactive: -0.0606%
2,CCCCn1nnnc1C(c1cc2ccccc2o1)N1CCC(n2c(=O)[nH]c3ccccc32)CC1 (stereo not given),inactive: -7.02%
3,O=P1(N(CCCl)CCCl)SCCCS1,inactive: 4.67%
4,O=C(NCC1(N2CCCCC2)CCCCC1)c1ccc(F)cc1,inactive: 4.04%
5,O=c1[nH]c2ccccc2n1C1CCN(C(c2ccccc2)c2nnnn2C2CCCCC2)CC1 (stereo not given),inactive: 4.66%
6,CCOC(=O)N1CCC(Nc2cccc(C)c2)CC1,inactive: -0.147%
7,COc1cc(C(=O)NCC2(N(C)C)CCCCC2)ccc1OC(F)F,inactive: -15.1%
8,O=c1[nH]c2ccccc2n1C1CCN(C(c2cccc3ccccc23)c2nnnn2C2CCCC2)CC1 (stereo not given),inactive: -13.1%
9,COc1ccc(C(=O)NCC2(N3CCCCC3)CCCCC2)c(OC)c1OC,inactive: -1.03%
10,CCC(c1nnnn1C1CCCC1)N1CCC(n2c(=O)[nH]c3ccccc32)CC1 (stereo not given),inactive: 0.381%
11,COc1ccc(C(=O)NCC2(N3CCCCC3)CCCCC2)cc1,inactive: -13.8%
12,CCCCn1nnnc1C(CC)N1CCC(n2c(=O)[nH]c3ccccc32)CC1 (stereo not given),inactive: -0.809%
13,O=C(NCC1(N2CCCCC2)CCCCC1)c1cccs1,inactive: -4.31%
14,CCCCn1nnnc1C(c1cccs1)N1CCC(n2c(=O)[nH]c3ccccc32)CC1 (stereo not given),inactive: -24%
15,O=C(NCC1(N2CCCCC2)CCCCC1)c1ccc(=O)[nH]c1,inactive: -1.47%
16,Cc1cccc(NC2(C#N)CCN(Cc3ccccc3)CC2)c1,inactive: 6.66%
17,CSc1ccccc1C(=O)NCC1(N2CCCCC2)CCCCC1,inactive: -0.995%
18,Cc1cc(C)cc(N(C(=O)c2ccccc2)C2CCN(C(=O)OC(C)(C)C)CC2)c1,inactive: 2.34%
19,O=C(NCC1(N2CCCCC2)CCCCC1)c1ccc(Cl)nc1,inactive: 12.7%
20,O=c1[nH]c2ccccc2n1C1CCN(C(c2ccccc2OC(F)(F)F)c2nnnn2C2CCCCC2)CC1 (stereo not given),inactive: 2.28%
21,O=C(NCC1(N2CCOCC2)CCCCC1)c1cc2ccccc2o1,inactive: 0%
22,COc1ccc(Cl)cc1C(=O)NCC1(N2CCOCC2)CCCCC1,inactive: 0%
23,O=C1C(O)=C([N+](=O)[O-])C(=O)C(O)=C1[N+](=O)[O-],inactive: -13.6%
24,O=C(NCC1(N2CCCCC2)CCCCC1)c1ccc(Cl)s1,inactive: 1.38%
25,O=c1[nH]c2ccccc2n1C1CCN(C(c2cc3ccccc3o2)c2nnnn2C2CCCCC2)CC1 (stereo not given),inactive: -3.04%
26,O=C(OC1CN2CCC1CC2)C1c2ccccc2Oc2ccccc21 (stereo not given),inactive: -12.7%
27,CCCCn1nnnc1C(c1ccc(OC)cc1)N1CCC(n2c(=O)[nH]c3ccccc32)CC1 (stereo not given),inactive: -7.33%
